PubChem BioAssay AID1259414 – Drosophila RNAi Screening Center – 2018

- Purpose: 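Host factors increasing or decreasing Wolbachia levels in cultured fly cells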 (primary screen)
- Cell system: Drosophila JW18 cells infected with Wolbachia
- Knock-down reagent: long dsRNA against Drosophila genes, 0.25 µg dsRNA per well of a 384-well plate
- Time to read-out: 5 days
- Challenge: cells persistently infected with Wolbachia before knock-down; no added drug
- Detection: 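Automated imaging of bacterial rRNA staining divided by host cell count, reported as plate-normalised robust z-score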
- Scale: Wolbachia per cell robust z: higher = more Wolbachia per host cell than the plate typical
- Hit rule: 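Hit when robust z is 1.5 or more, or -1.5 or less, in at least two of three replicates; excludes dsRNAs with several or no targets, genes not expressed in JW18 and well A1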
The deposit covers about 24,000 reagents; this is an unselected part of those with a known target gene and a result. In the full data, about 1,210 (5%) were called active. 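Inactive calls also include excluded dsRNAs with several or no targets, genes unexpressed in JW18, and well A1, regardless of score.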 Unmarked entries are inactive. Names joined by + are all predicted targets of the reagent.

What did the screen give for Spn27A [DRSC03608]?
Wolbachia per cell robust z, rep 1: 0.772; Wolbachia per cell robust z, rep 2: 0.393; Wolbachia per cell robust z, rep 3: 0.104

Which result is listed for lncRNA:CR44241 + Trpm [DRSC40571]?
Wolbachia per cell robust z, rep 1: 0.171; Wolbachia per cell robust z, rep 2: 0.88; Wolbachia per cell robust z, rep 3: 0.233

What is on record for Ing5 [DRSC03188]?
Wolbachia per cell robust z, rep 1: -0.706; Wolbachia per cell robust z, rep 2: -1.04; Wolbachia per cell robust z, rep 3: 0.0395

Which result is listed for Ing5 [DRSC25216]?
Wolbachia per cell robust z, rep 1: 0.291; Wolbachia per cell robust z, rep 2: -0.174; Wolbachia per cell robust z, rep 3: 0.865

For CG1309 [DRSC08302], what does the deposit list?
Wolbachia per cell robust z, rep 1: -8.11 (active); Wolbachia per cell robust z, rep 2: -1.55; Wolbachia per cell robust z, rep 3: -1.86

What did the screen give for cona [DRSC16281]?
Wolbachia per cell robust z, rep 1: 0.00335; Wolbachia per cell robust z, rep 2: 0.718; Wolbachia per cell robust z, rep 3: 1.34

What did the screen give for lncRNA:CR42862 [DRSC08348]?
Wolbachia per cell robust z, rep 1: -0.571; Wolbachia per cell robust z, rep 2: 0.623; Wolbachia per cell robust z, rep 3: -1.09

With lncRNA:CR42862 [DRSC27596], what was measured?
Wolbachia per cell robust z, rep 1: -1.21; Wolbachia per cell robust z, rep 2: -1.3; Wolbachia per cell robust z, rep 3: 0.248

With lncRNA:CR42862 [DRSC36563], what was measured?
Wolbachia per cell robust z, rep 1: 0.387; Wolbachia per cell robust z, rep 2: 1.58; Wolbachia per cell robust z, rep 3: 0.0228

What is on record for CG8833 [DRSC11050]?
Wolbachia per cell robust z, rep 1: -4.98; Wolbachia per cell robust z, rep 2: 1.34; Wolbachia per cell robust z, rep 3: 0.271

Which result is listed for boil [DRSC17872]?
Wolbachia per cell robust z, rep 1: -0.723; Wolbachia per cell robust z, rep 2: 0.0764; Wolbachia per cell robust z, rep 3: 0.105

For CR18166 + CG3176 + CG32817 [DRSC28432], what does the deposit list?
Wolbachia per cell robust z, rep 1: -1.13; Wolbachia per cell robust z, rep 2: 0.385; Wolbachia per cell robust z, rep 3: -1.33

With CG9269 [DRSC16465], how do the results read?
Wolbachia per cell robust z, rep 1: -2.54; Wolbachia per cell robust z, rep 2: 0.0721; Wolbachia per cell robust z, rep 3: -1.25

With GstD6 [DRSC16687], what was measured?
Wolbachia per cell robust z, rep 1: -0.657; Wolbachia per cell robust z, rep 2: 0.3; Wolbachia per cell robust z, rep 3: -0.198

How did the screen score GstD6 [DRSC24208]?
Wolbachia per cell robust z, rep 1: -0.835; Wolbachia per cell robust z, rep 2: -2.66; Wolbachia per cell robust z, rep 3: 0.08

With CG17199 [DRSC15192], what does the deposit list?
Wolbachia per cell robust z, rep 1: 1.04; Wolbachia per cell robust z, rep 2: 1.19; Wolbachia per cell robust z, rep 3: -0.37

For CG30172 [DRSC21519], how do the results read?
Wolbachia per cell robust z, rep 1: 0.864; Wolbachia per cell robust z, rep 2: 0.731; Wolbachia per cell robust z, rep 3: -0.344

What is on record for CG30172 [DRSC30069]?
Wolbachia per cell robust z, rep 1: 0.085; Wolbachia per cell robust z, rep 2: 0.352; Wolbachia per cell robust z, rep 3: 1.15

What is on record for CG34408 [DRSC17733]?
Wolbachia per cell robust z, rep 1: 0.125; Wolbachia per cell robust z, rep 2: 0.157; Wolbachia per cell robust z, rep 3: 0.691

For CG34408 [DRSC23056], how do the results read?
Wolbachia per cell robust z, rep 1: -2.36; Wolbachia per cell robust z, rep 2: -0.492; Wolbachia per cell robust z, rep 3: -0.0671

How did the screen score CG34408 [DRSC27286]?
Wolbachia per cell robust z, rep 1: -0.0675; Wolbachia per cell robust z, rep 2: 0.977; Wolbachia per cell robust z, rep 3: 0.836

What did the screen give for CG34408 [DRSC28674]?
Wolbachia per cell robust z, rep 1: 0.178; Wolbachia per cell robust z, rep 2: 0.537; Wolbachia per cell robust z, rep 3: -0.722

With Vps20 [DRSC04448], what does the deposit list?
Wolbachia per cell robust z, rep 1: -1.29; Wolbachia per cell robust z, rep 2: 0.739; Wolbachia per cell robust z, rep 3: 0.783

For Nos [DRSC03381], how do the results read?
Wolbachia per cell robust z, rep 1: -0.316; Wolbachia per cell robust z, rep 2: -0.677; Wolbachia per cell robust z, rep 3: -0.313

With Sdc [DRSC04654], what does the deposit list?
Wolbachia per cell robust z, rep 1: 1.17; Wolbachia per cell robust z, rep 2: 0.0264; Wolbachia per cell robust z, rep 3: 1.05

How did the screen score Sdc [DRSC25762]?
Wolbachia per cell robust z, rep 1: 1.61; Wolbachia per cell robust z, rep 2: 1.44; Wolbachia per cell robust z, rep 3: 0.766

Which result is listed for Sdc [DRSC38962]?
Wolbachia per cell robust z, rep 1: 1.09; Wolbachia per cell robust z, rep 2: 0.199; Wolbachia per cell robust z, rep 3: 0.338

How did the screen score Sdc [DRSC40846]?
Wolbachia per cell robust z, rep 1: 0.314; Wolbachia per cell robust z, rep 2: 0.372; Wolbachia per cell robust z, rep 3: 0.673

With Rpt2 [DRSC16799], what does the deposit list?
Wolbachia per cell robust z, rep 1: 3.71 (active); Wolbachia per cell robust z, rep 2: 2.45; Wolbachia per cell robust z, rep 3: 2.75

For Rpt2 [DRSC25012], what does the deposit list?
Wolbachia per cell robust z, rep 1: 2.51 (active); Wolbachia per cell robust z, rep 2: 2.17; Wolbachia per cell robust z, rep 3: 3.41

In a second layout: 4 of the entries above
Gene,DRSC id,"Wolbachia per cell robust z, rep 1","Wolbachia per cell robust z, rep 2","Wolbachia per cell robust z, rep 3"
Spn27A,DRSC03608,0.772,0.393,0.104
lncRNA:CR44241 + Trpm,DRSC40571,0.171,0.88,0.233
Ing5,DRSC03188,-0.706,-1.04,0.0395
Ing5,DRSC25216,0.291,-0.174,0.865
